ChEMBL document CHEMBL1133067, “Second generation mimics of ganglioside GM1 as artificial receptors for cholera toxin: replacement of the sialic acid moiety” (Bioorg Med Chem Lett, 2000)

Test: Affinity towards Cholera toxin B5 pentamer
Design: species or system Vibrio cholerae

With LACTOSE, ANHYDROUS the Kd was 81 µM.
